Pooled drug test results. Numbers come from NIAID ChemDB, via PubChem.

MIC50, MIC90 and the like: level of inhibition, or share of isolates inhibited. An empty or dashed field is not shown. ECn is the concentration giving n% inhibition of infection, replication or growth. Lines come from different laboratories, so protocols vary. MIC bound: limit read from a one-dose screen. Inhibition is in % at the dose shown (toxicity tests: loss of growth or viability). ICn: concentration for n% inhibition.

smiles | measure | target | organism | strain | test | method | cell line | tested at | result
c1ccc(-c2cccc(-c3ccccc3)n2)cc1 | MIC |  | Mycobacterium tuberculosis | H37Rv | culture |  |  |  | >100 µg/mL
O=C(Nc1nnc(NCC2CCCCC2)s1)c1ccc2c(c1)C(=O)OC2=O | IC50 | Polymerase | Human cytomegalovirus |  | target |  |  |  | <25 µM
Cc1ccc(NC(=S)SCc2ccc(Cl)cc2)cc1Br | MIC bound |  | Mycobacterium tuberculosis | H37Rv | culture | BACTEC |  |  | >12.5 µg/mL
CCOC(=O)C(CCN(CC)CC)c1ccccc1 | MIC |  | Mycobacterium tuberculosis | H37Rv | culture |  |  |  | >100 µg/mL
CCO/N=C/c1ccc(OCCC2CCN(c3ccc(C)nn3)CC2)cc1 | EC50 |  | Rhinovirus | thompson (ICAM-1 receptor group 6 | culture | neutral red | KB |  | 0.007 µM
CCOc1c(N=Nc2ccc(Cl)cc2Cl)c(C)nn1C(=S)S | MIC |  | Mycobacterium tuberculosis | EMB-R | culture |  |  |  | 12.5 µg/mL
Clc1ccc(Cl)s1 | MIC |  | Mycobacterium tuberculosis | H37Rv | culture |  |  |  | 50 µg/mL
Nc1cc(=O)[nH][nH]1 | MIC bound |  | Mycobacterium tuberculosis | H37Rv | culture | BACTEC |  |  | >12.5 µg/mL
COc1ccc(C)c2c1N(CC(O)CO)CCC2 | MIC |  | Mycobacterium tuberculosis | H37Rv | culture |  |  |  | >100 µg/mL
CN(C)c1cccc(-c2cncc(N3CCN(c4ccncc4)CC3)n2)c1 | IC50 | UL97 kinase | Cytomegalovirus |  | target |  |  |  | <100 µM
CC(=O)N(C)c1ccc(Nc2ccnc3ccc4nn(C)nc4c23)cc1 | MIC bound |  | Mycobacterium tuberculosis | H37Rv | culture | resazurin |  |  | >6.25 µg/mL
CCOc1ccc2ccccc2c1C(=O)Nc1nnc(NCC(c2ccccc2)c2ccccc2)s1 | IC50 | Polymerase | Human cytomegalovirus |  | target |  |  |  | <25 µM
O=C(O)/C=C/C(=O)C1OC1C(=O)O | MIC |  | Mycobacterium tuberculosis | H37Rv | culture |  |  |  | >100 µg/mL
COc1ccc(OC)c(-c2cncc(N3CCN(c4ccc(OC)c(OC)c4)CC3)n2)c1 | IC50 | UL97 kinase | Cytomegalovirus |  | target |  |  |  | <100 µM
COc1cc(C(O)C2C(=O)OCC2C2(c3ccc4c(c3)OCO4)SCCCS2)cc(OC)c1OC | MIC bound |  | Mycobacterium tuberculosis | H37Rv | culture | BACTEC |  |  | >12.5 µg/mL
O=C(O)CONC(=O)c1ccccc1 | MIC |  | Mycobacterium tuberculosis | H37Rv | culture |  |  |  | 100 µg/mL
Cc1ccc(C(=O)Nc2nnc(NCc3cccc4ccccc34)s2)cc1 | IC50 | Polymerase | Human cytomegalovirus |  | target |  |  |  | >25 µM
COc1cccc(N2CCN(c3cncc(-c4ccoc4)n3)CC2)c1 | inhibition | UL97 kinase | Cytomegalovirus |  | target |  |  | 10 µM | >15%
CC1(C)C2CCC13CS(=O)(=O)N(C(=O)C1CC=CCC1)C3C2 | inhibition |  | Mycobacterium tuberculosis | H37Rv | culture | BACTEC |  | 12.5 µg/mL | 0%
O=C(O)c1c[nH]c2c(Cl)cccc2c1=O | MIC |  | Mycobacterium tuberculosis | H37Rv | culture |  |  |  | >100 µg/mL
NC(=O)c1ccccc1-c1cncc(N2CCN(c3ccncc3)CC2)n1 | inhibition | UL97 kinase | Cytomegalovirus |  | target |  |  | 10 µM | >15%
O=C(O)CCc1c[nH]c2ccccc12 | MIC |  | Mycobacterium tuberculosis | H37Rv | culture |  |  |  | 25 µg/mL
COc1cc(C[C@H](C)[C@H](C)Cc2ccc(O)c(O)c2)ccc1O | MIC50 |  | Candida kefyr | CCC 123-2000 | culture | broth dilution |  |  | 15.6 µg/mL
CCN(CC)CCCS | MIC |  | Mycobacterium tuberculosis | H37Rv | culture |  |  |  | >100 µg/mL
CCCCCCCC/C=C/CCCCCCCC(=O)Nc1nnc(NCc2ccc(F)cc2)s1 | IC50 | Polymerase | Human cytomegalovirus |  | target |  |  |  | <25 µM
Cc1ccc(NC2=NCCS2)cc1Cl | MIC bound |  | Mycobacterium tuberculosis | H37Rv | culture | BACTEC |  |  | >12.5 µg/mL
Cc1ccc(-c2cncc(N3CCN(c4ccccc4)CC3)n2)cc1 | IC50 | UL97 kinase | Cytomegalovirus |  | target |  |  |  | <10 µM
Cl.Nc1nccc(Nc2cc([As]=O)ccc2O)n1 | MIC |  | Mycobacterium tuberculosis | H37Rv | culture |  |  |  | >100 µg/mL
COc1ccc2[nH]c3c(C)c4ccncc4c(C)c3c2c1 | MIC |  | Mycobacterium tuberculosis | H37Rv | culture | BACTEC |  |  | 0.1 µg/mL
O=C(Nc1nnc(NCCCCc2ccccc2)s1)c1ccc([N+](=O)[O-])o1 | IC50 | Polymerase | Human cytomegalovirus |  | target |  |  |  | <25 µM
O=C(O)/C(=C\c1ccc2c(c1)OCO2)NC(=O)c1ccccc1 | MIC |  | Mycobacterium tuberculosis | H37Rv | culture |  |  |  | 100 µg/mL
OCC(O)COCCCCCCCCCCCCCC1C=CCC1 | inhibition |  | Mycobacterium tuberculosis | H37Rv | culture | BACTEC |  | 12.5 µg/mL | 99%
C[C@H](CCC(=O)O)[C@H]1CC[C@H]2[C@@H]3[C@H](O)C[C@@H]4C[C@H](O)CC[C@]4(C)[C@H]3C[C@H](O)[C@]12C | MIC |  | Mycobacterium tuberculosis | H37Rv | culture |  |  |  | >100 µg/mL
O=C(O)C1CC(C(=O)O)SS1 | MIC bound |  | Mycobacterium tuberculosis | H37Rv | culture | BACTEC |  |  | >12.5 µg/mL
CCOCCc1c(O)[nH]c(=O)c(C#N)c1C | MIC |  | Mycobacterium tuberculosis | H37Rv | culture |  |  |  | >100 µg/mL
CCCCCCCC/C=C/CCCCCCCC(=O)Nc1nnc(NC2CCC2)s1 | IC50 | Polymerase | Human cytomegalovirus |  | target |  |  |  | >25 µM
CCCCCCCC(CC(=O)O)OC(=O)CC(CCCCCCC)OC1O[C@@H](C)[C@H](O)[C@@H](O)[C@H]1O[C@@H]1O[C@@H](C)[C@H](O)[C@@H](O)[C@H]1O | MIC |  | Mycobacterium tuberculosis | H37Rv | culture | BACTEC |  |  | ≥12.5 µg/mL
COc1cccc(-c2cncc(N3CCN(c4cccc(OC)c4)CC3)n2)c1 | IC50 | UL97 kinase | Cytomegalovirus |  | target |  |  |  | <10 µM
Cn1c(=O)c2nc3ccccc3nc2n(C)c1=O | inhibition |  | Mycobacterium tuberculosis | H37Rv | culture | BACTEC |  | 12.5 µg/mL | 0%
Fc1ccc(N2CCCCC2)c(NC(=S)c2ccncc2)c1 | inhibition | ZAP-70 |  |  | host protein | kinase activity |  | 10 µM | -1%
CC(C)c1c(O)c(O)c2c(c1O)C(=O)C(O)=C1C(C)(C)CCC[C@@]12C | MIC |  | Mycobacterium tuberculosis | H37Rv | culture | BACTEC |  |  | ≥12.5 µg/mL
Cl.NCc1cccs1 | MIC |  | Mycobacterium tuberculosis | H37Rv | culture |  |  |  | 1600 µg/mL
CCOC(=O)C1=C(C)O/C(=C\c2ccccc2)C1=O | inhibition |  | Mycobacterium tuberculosis | H37Rv | culture | BACTEC |  | 12.5 µg/mL | 27%
C#CC[C@@H](C(=O)N[C@H](/C=C/C(=O)OCC)C[C@@H]1CCNC1=O)n1cccc(NC(=O)c2cc(C)on2)c1=O | inhibition |  | Rhinovirus | Serotype 68 | culture | cytopathic effect / XTT | H1-HELA | 0.941 µM | 90%
N=C1C=C(N)C(=O)c2[nH]c(=O)ccc21 | inhibition |  | Mycobacterium tuberculosis | H37Rv | culture | BACTEC |  | 12.5 µg/mL | 93%
Br.O=C(c1ccccc1)C(Br)CN1CCCCC1 | MIC |  | Mycobacterium tuberculosis | H37Rv | culture |  |  |  | 100 µg/mL
OC(C1CCCCN1)C1CC(c2ccccc2)Nc2c(Cl)cc(Cl)cc21 | MIC |  | Mycobacterium tuberculosis | H37Rv | culture | BACTEC |  |  | 6.25 µg/mL
O=C(O)c1cc(Br)c(O)c(Br)c1 | MIC |  | Mycobacterium tuberculosis | H37Rv | culture |  |  |  | >100 µg/mL

The last 6 rows once more:

smiles	measure	target	organism	strain	test	method	cell line	tested at	result
CCOC(=O)C1=C(C)O/C(=C\c2ccccc2)C1=O	inhibition		Mycobacterium tuberculosis	H37Rv	culture	BACTEC		12.5 µg/mL	27%
C#CC[C@@H](C(=O)N[C@H](/C=C/C(=O)OCC)C[C@@H]1CCNC1=O)n1cccc(NC(=O)c2cc(C)on2)c1=O	inhibition		Rhinovirus	Serotype 68	culture	cytopathic effect / XTT	H1-HELA	0.941 µM	90%
N=C1C=C(N)C(=O)c2[nH]c(=O)ccc21	inhibition		Mycobacterium tuberculosis	H37Rv	culture	BACTEC		12.5 µg/mL	93%
Br.O=C(c1ccccc1)C(Br)CN1CCCCC1	MIC		Mycobacterium tuberculosis	H37Rv	culture				100 µg/mL
OC(C1CCCCN1)C1CC(c2ccccc2)Nc2c(Cl)cc(Cl)cc21	MIC		Mycobacterium tuberculosis	H37Rv	culture	BACTEC			6.25 µg/mL
O=C(O)c1cc(Br)c(O)c(Br)c1	MIC		Mycobacterium tuberculosis	H37Rv	culture				>100 µg/mL